Reference: ChEMBL document CHEMBL1649436, “Antiviral activity of MK-4965, a novel nonnucleoside reverse transcriptase inhibitor” (Antimicrob Agents Chemother, 2009)

What was measured:
[1] = molecular target: Human immunodeficiency virus type 1 reverse transcriptase (Human immunodeficiency virus 1, UniProt Q72547, K103N); test: Inhibition of HIV1 isolate R8 reverse transcriptase K103N mutant after 90 mins by electrochemiluminescence analysis
[2] = molecular target: Human immunodeficiency virus type 1 reverse transcriptase (Human immunodeficiency virus 1, UniProt Q72547, Y181C); test: Inhibition of HIV1 isolate R8 reverse transcriptase Y181C mutant after 90 mins by electrochemiluminescence analysis

`Cc1cc(C#N)cc(C)c1Oc1nc(Nc2ccc(C#N)cc2)nc(N)c1Br` [ETRAVIRINE] showed an IC50 [1] of 1.3 nM and an IC50 [2] of 1.96 nM.
